Experimental findings from paper PMC8753592, “Long-acting capsid inhibitor protects macaques from repeat SHIV challenges” (Nature, 2021) are described below.

Molecules are shown by their SMILES. Entries after “also recorded” stand apart in the source; their conditions may differ.

This test deals with SHIV capsid (gag region). The test can be described thus: Plasma virus genotypic (capsid resistance) analysis. It is filed as in vivo, rhesus macaques. The conditions noted are these: nine viraemic treated animals, 24-week study. The procedure:
Total RNA was extracted from 50-µl plasma aliquots obtained from each viraemic monkey using the MagMAX-96 Viral RNA Isolation kit (Life Technologies) in conjunction with the Thermo Scientific KingFisher Flex automated extraction platform and were eluted in 60 μl AVE buffer. The portion of gag encoding capsid in each sample was then individually amplified by RT–PCR using a SuperScript IV One-Step RT–PCR System (Life Technologies) according to the manufacturer’s recommended protocol. Amplification of the SHIV capsid-encoding region in each sample was performed using primers SIV-CA-F (5′-[…]-3′) and SIV-CA-R (5′-[…]-3′), and the products were subjected to population-level bulk sequencing at Elim Biopharmaceuticals using the same primer set. To identify codon changes, Sequencher version 4.9 (Gene Codes) was used to align DNA encoding sequences of the SHIV capsid for each sample with that of the parent virus obtained from each infected placebo-treated control animal. This provided a control for potential genetic drift that might have occurred during the 24-week efficacy study.

On to `CC(C)(C#Cc1ccc(-c2ccc(Cl)c3c(NS(=O)(=O)C4CC4)nn(CC(F)F)c23)c([C@H](Cc2cc(F)cc(F)c2)NC(=O)Cn2nc(C(F)F)c3c2C(F)(F)[C@@H]2C[C@H]32)n1)S(C)(=O)=O` [GS-CA1], for which the “emergence of capsid variants associated with resistance” value is “no study animal showed emergence of variants associated with GS-CA1 resistance; also recorded: no resistance mutations”.
